PMC8485799, “Synthesis and Antiprotozoal Profile of 3,4,5‐Trisubstituted Isoxazoles” (ChemistryOpen, 2021)

Assays:
[1] = test system: promastigote forms of Leishmania amazonensis (WHOM/BR/75/JOSEFA strain); experiment: Antiproliferative assay (XTT), promastigote forms, 72 h; assay type: cell-based; settings: for Fold change in activity against L. amazonensis relative to analog/precursor: promastigote IC50 ratio, 3 db less active vs 2 db, 3 bc more active vs 2 bc, 4 ac more active vs 3 ac
Experimental: (§1) The antiproliferative activity was determined in promastigote forms of Leishmania amazonensis (WHOM/BR/75/JOSEFA strain) and epimastigote forms of Trypanosoma cruzi (Y strain). The promastigote forms of L. amazonensis were cultured in Warren medium (brain heart infusion, hemin, and folic acid; pH 7.4) supplemented with 10 % fetal bovine serum (FBS) at 25 °C. The epimastigote forms of T.cruzi were cultured in LIT medium (liver infusion tryptose; hemin, and folic acid; pH 7.4) supplemented with 10 % FBS at 28 °C. Cytotoxicity in mammalian cells was determined in fibroblast line (L929) and macrophages (J774 A1). Fibroblasts were cultured in DMEM medium (pH 7.2) supplemented with 10 % FBS at 37 °C in a 5 % CO2 atmosphere. Macrophages were cultured in RPMI‐1640 (pH 7.2) medium supplemented with 10 % FBS at 37 °C in a 5 % CO2 atmosphere.
(§2) Stock solutions of the compounds were prepared in DMSO and then diluted in the respective medium.
(§3) Promastigote forms (1×10^6 parasites.mL^−1) were cultured in 96‐well plates in the presence and absence of different concentrations of compounds diluted in Warren medium supplemented with 10 % FBS and incubated for 72 h. The epimastigote forms (1×10^6 parasites.mL^−1) were cultured in 96‐well plates in the presence and absence of different concentrations of compounds diluted in LIT medium supplemented with 10 % FBS and incubated for 96 h. After treatment, the parasites were incubated with a solution of 2,3‐bis(2‐methoxy‐4‐nitro‐5‐sulfophenyl)‐2H‐tetrazolium‐5‐carboxanilide (XTT; 0.5 mg.mL^−1) and phenazine methanesulfonate activator (PMS; 0.06 mg.mL^−1) in PBS for 4 h. Then, the absorbance was read in a microplate reader (Bio Tek‐Power Wave XS) at 450 nm.[20] The percentage of viable parasites was calculated in relation to the control in order to determine the concentration that inhibits 50 % of the protozoa (IC50). The control groups of each experiment received the same experimental conditions as the treated groups (cell concentration used, temperature, and incubation time).

[2] = test system: epimastigote forms of Trypanosoma cruzi (Y strain); experiment: Antiproliferative assay (XTT), epimastigote forms, 96 h; assay type: cell-based
Experimental: as §1, §2, §3

**Q.** For `NNC(=O)c1noc(-c2ccc(Cl)cc2)c1CNc1ccc(Cl)cc1` [3 db], which “Fold change in activity against L. amazonensis relative to analog/precursor” value [1] is on record?
**A.** The value was 2.7 fold.

**Q.** What does the source list for `COc1ccc(NCc2c(C(=O)N/N=C/c3ccccc3)noc2-c2ccc([N+](=O)[O-])cc2)cc1` [4 ac]?
**A.** Fold increase in anti-Trypanosoma cruzi activity relative to precursor ([2]; 4 ac vs carbohydrazide 3 ac): ~5 fold; Fold change in activity against L. amazonensis relative to analog/precursor [1]: approximately 4 fold

**Q.** For `COc1ccc(NCc2c(C(=O)NN)noc2-c2ccccc2)cc1` [3 bc], which “Fold change in activity against L. amazonensis relative to analog/precursor” value [1] is on record?
**A.** Its value is 3.6 fold.

**Q.** Which results are given for `CCOC(=O)c1noc(-c2ccc([N+](=O)[O-])cc2)c1CNc1ccccc1` [2 aa, 3‐Carboxyethyl‐4‐(phenyl)aminomethyl‐5‐(4‐nitrophenyl)isoxazole]?
**A.** SIT-F, selectivity index (Fibroblast CC50/T. cruzi IC50) ([2]; fibroblast vs epimastigote): 4.97; SIT-M, selectivity index (Macrophages CC50/T. cruzi IC50) ([2]; macrophages vs epimastigote): 3.74; SIL-F, selectivity index (Fibroblast CC50/L. amazonensis IC50) ([1]; fibroblast vs promastigote): 7.74; SIL-M, selectivity index (Macrophages CC50/L. amazonensis IC50) ([1]; macrophages vs promastigote): 5.82
